Legend:
Assay in all cases: MIC, broth microdilution
[1] = test system: S. cholerasius GC 1355
[2] = test system: Salmonella spp. GC 235
[3] = test system: Salmonella spp. GC 566

Measured: MINIMAL INHIBITORY CONCENTRATION MIC

CC(C)COC(=O)N(CC(=O)Nc1cc(N(C)C)c2c(c1O)C(=O)C1=C(O)[C@]3(O)C(=O)C(C(N)=O)=C(O)[C@@H](N(C)C)[C@@H]3C[C@@H]1C2)C(C)(C)C [Example 59, isobutyl 2-{[(5aR,6aS,7S,10aS)-9-(aminocarbonyl)-4,7-bis(dimethylamino)-1,8,10a,11-tetrahydroxy-10,12-dioxo-5,5a,6,6a,7,10,10a,12-octahydrotetracen-2-yl]amino}-2-oxoethyl(tert-butyl)carbamate]
>64 UG/ML: [1]; Human Serum | [1]; Mouse Serum | [1]; Water | [2]; Human Serum | [2]; Mouse Serum | [2]; Water | [3]; Human Serum | [3]; Mouse Serum | [3]; Water

Reference: patent publication US20070049564A1 (Wyeth, priority 2005, published 2007)
